Data set [1] concerns the target CzcR-His6 (Pseudomonas aeruginosa MPAO1) (UniProt G3XD16). Put plainly: DNase I footprinting. The note with it: 18 uM protein (or as indicated), 50 mM acetyl phosphate, 5 mM Mg2+, 10 mM Tris-Cl pH 8.0, 1 mM DTT, 10% glycerol, 5 mM MgCl2, 10 mM KCl, footprinting 30 min at room temperature, recombinant protein, residues 1-224, protein details: C-terminal His6 (pET22b), label: FAM on forward primer (footprinting), none (EMSA), probe letters rebuilt from the primers and the genome.

Data set [2] has the same target. Put plainly: EMSA. The note with it: 50 mM acetyl phosphate, 5 mM Mg2+, 10 mM Tris-Cl pH 8.0, 1 mM DTT, 10% glycerol, 5 mM MgCl2, 10 mM KCl, EMSA 30 min at 37 C, footprinting 30 min at room temperature, recombinant protein, residues 1-224, protein details: C-terminal His6 (pET22b), label: FAM on forward primer (footprinting), none (EMSA), probe letters rebuilt from the primers and the genome. Background: A gel shift assay detects complexes by their altered migration in electrophoresis.

Data set [3] concerns the target T1, His6-BfmR (Pseudomonas aeruginosa MPAO1) (UniProt Q9HWS7).
T1 sequence: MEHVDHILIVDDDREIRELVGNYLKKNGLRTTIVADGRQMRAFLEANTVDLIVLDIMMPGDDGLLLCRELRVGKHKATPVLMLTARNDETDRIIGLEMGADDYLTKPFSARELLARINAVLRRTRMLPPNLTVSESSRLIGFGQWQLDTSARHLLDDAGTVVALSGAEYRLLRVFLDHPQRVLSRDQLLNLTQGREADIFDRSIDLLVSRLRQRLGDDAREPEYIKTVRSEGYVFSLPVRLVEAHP
Put plainly: DNase I footprinting. To be noted: 50 mM acetyl phosphate, 5 mM Mg2+, 10 mM Tris-Cl pH 8.0, 1 mM DTT, 10% glycerol, 5 mM MgCl2, 10 mM KCl, footprinting 30 min at room temperature, recombinant protein, probe letters rebuilt from the primers and the genome.

In data set [4] the target is T1, His6-BfmR (Pseudomonas aeruginosa MPAO1). The experiment in a line: EMSA. The note with it: 50 mM acetyl phosphate, 5 mM Mg2+, 10 mM Tris-Cl pH 8.0, 1 mM DTT, 10% glycerol, 5 mM MgCl2, 10 mM KCl, EMSA 30 min at 37 C, footprinting 30 min at room temperature, recombinant protein.

For some of these results: The exact form of at least one protein or probe is not confirmed.

Take “GGCAGATGTTAGGTAGCGGGGCTTATCGGCAAGGTGACGGAAGAATTACAAGTCGGTAATGAATATTCTCCACGGACAATTAGCGGTTACACTTCGGCAACCTTCGAAGAGACTGGCAATAGTTGGATGAAACATAGGGACAAAAGCAACATGCGCTTACAAAAGGCATTGCCCCTCACGCCCAGCGGTGCTTGCGCCGCGGACATTTCCAAAGTTCTCAGGCGGTCTCCCGGGAGAACTACCCGGTCATTCGATAATTATCATCGAAGCAGCGCAACGATATGAAATTACATTTCCAGGATTCTATCCAGGCAACGCCCGAAATGTAACTTTATAGCAATGCACTTAAACATTTACTTGCAAATGAATCCATACTTTATATAGGGGCGAACATGCGCATC (double strand) [czcR-p2]”: the binding result in data set [1] and in data set [2] was “binds” each time.

For the sequence “GAGCCTTTTCCTGCGTACCGAAAGAATAAAATTACAACTTGGCTACAACCTCCGGCATTGCAGGAAGCATCAGCTTAGCAATCCCGCATACCCTGTCTGGCACCTACCAGATCTTGTAGTTGAGCCGGTACGAGCGTTCTGTGTTTTATGCAATCCACATCAGCGACCAGGGATGCTGGCTATTTGAAACACTTCACGGAATGACGCTGAAAGTCTTCGCGACCTCGTCTGTCGCACCTTAACGAAAGCATTGCGAATCCATTACCGACAGGTTTCCAAAAGAAACCCGGGATGAAACTCCTATTGCCTTTCGAAAATTGGAAACGACAGGCGAACATATGTAACGCGAAATTTCACCCTACGTATAAACAATGCGCCCAGCGAATATCGCTCCCTTACCGAGCGACGAA (double strand) [phzA1-p]”, the binding result in data set [1] and in data set [2] was “binds” throughout.

Turning to “CGAAGATTTCCCCTTAATGGTGTGTGCATTGGCAACACGCGAGTGCCTGGCTACAGCGCGCCCCTTGTTCCGCGCTGGCCGTAAGGCGGCCCCTTTGTGTTGGGGGAATCTTGGCGATGGCAGATTGCAGCCAAATTGCATGGAGATAAATGTTTCATTACAGAGGAACTTTTTATCTCCAATGCGAATAACGCGAAAAGCCCTCTACTACGGGCCTTTCGGGTTATTCGATATGGGTAGAAATCTCAGCGCAATTTTTGCGCAATCCAGAAGTCAGCAGAAAGCCACTTGCCGGCGCCGCCGAAGAACAGCGCGAGCAACATCACCAGGTAGGTCGCGGCGAACTCGATGCCGTTGTTGACGATGGCGAAGCTTCCGCTCGACGTCAGCCAGTCGTAGTTGCCGTATTCGCGCAGGATTT (double strand) [oprO promoter]”, the binding result in data set [3] (protein details: N-terminal His6, label: FAM on reverse primer (footprinting), none (EMSA)) is listed as “binds”; in data set [4] (protein details: N-terminal His6, label: FAM on reverse primer (footprinting), none (EMSA), probe letters rebuilt from the primers and the genome) it was “binds”.

As for “GTTACATTTCGGGCGTTGCCTGGATAGAATCCTGGAAATGTAATTTCATATCGTTGCGCTGCTTCGATGATAATTATCGAATGACCGGGTAGTTCTCCCGGGAGACCGCCTGAGAACTTTGGAAATGTCCGCGGCGCAAGCACCGCTGGGCGTGAGGGGCAATGCCTTTTGTAAGCGCATGTTGCTTTTGTCCCTATGTTTCATCCAACTATTGCCAGTCTCTTCGAAGGTTGCCGAAGTGTAACCGCTAATTGTCCGTGGAGAATATTCATTACCGACTTGTAATTCTTCCGTCACCTTGCCGATAAGCCCCGCTACCTAACATCTGCCGCATCCCGGAAGTGCAACTTCGAATATCGCCGGCGAGATATC (double strand) [czcR-p1]”, the binding result in data set [3] (6 uM protein, protein details: N-terminal His6, label: FAM on forward primer (footprinting), none (EMSA)) is “binds”; in data set [4] (protein details: N-terminal His6, label: FAM on forward primer (footprinting), none (EMSA), probe letters rebuilt from the primers and the genome) it was “binds”.

For “AGCGCCAGGTGGATTCTGTTCATCGCGTCTCTCTCCTGTGTCTTCAGGTGGAGCGTTCGCCGCCCGCAGGGACGGCACCGGAACCTGTTGAGCATAGCTCCGCCGCGGGCAGTCGGCGGAAACTACGCCGTTGTGTCACATACCTGACACAATTTCGTTATCTAATGCGGCGCAAGACAGATCGACCCGAGGCAAGACCATGGTTGGCAAGACAATCCTCATCGTTGATGACGAAGCACCGATTCGCGAGATGATCGCCGTGGCCCTGGAGATGGCCGGCTACGAGTGCCTGGAGGCGGAAAATACCCAGCAGGCGCACGCGGTGATCGTCGACCGCAA (double strand) [phoB promoter]”, in data set [3] (6 uM protein, protein details: N-terminal His6, label: FAM on reverse primer), the binding result is “binds”.

Consider “CGGCCAAGAGATTTGGCTCCTTGCATATTATAAGAACCCCAACACTTCCCGTCGTACCTTGAATGCCCCGCCTAGCGGAGAGGCATGAATACGCTCCGTTTTATTGATTTTCAAAGCCATGAGCACGGAGTCGATTTTATAATAATCAGGATTATCCGACGTGCGCTGATTCGCAGAGCGAGTCGGCTTCCGCCAATTAATCCAGCCTTCTTTAGAAGCGGAACAAAAGTACCAGTTTTATTATTCGAGGCCTTCCCTGAAAACGAACGAGACTTGCACTTCTTTAATCTCCATACGCACTTTCCGAAACAGCAGGCAATGTATCAATCGTTGCCAGATCTTTCTTCCGGGCGAGCGGCCGTACAATTCGGAAAACAGTCGCGCCGAACCAG (double strand) [exsA-p]”, for which the binding result in data set [4] (protein details: N-terminal His6, probe letters rebuilt from the primers and the genome) is recorded as “binds”.
